Pooled drug test results. Numbers come from NIAID ChemDB, via PubChem.

Shared fields: whole-cell or culture tests; agent: HIV-1; measure: EC50

Blank or dashed fields: not listed here.

structure,cells,method,conditions,strain or isolate,result
O=C(CC1Nc2ccccc2S(=O)(=O)n2cccc21)Nc1ccc(Cl)cc1,MT-4,MTT,-,IIIB,>12.5 µM
CC(C)C1=C2[C@H]3CC[C@@H]4[C@@]5(C)CC[C@H](OC(=O)[C@H]6C[C@@H](C(=O)O)C6(C)C)C(C)(C)[C@@H]5CC[C@@]4(C)[C@]3(C)CC[C@@]2([C@@H](O)CNC(=O)c2ccc(N3CCS(=O)(=O)CC3)cc2)CC1=O,MT-2,p24 / ELISA,-,92HT599,<1 µM
CC(=O)N(C)CCN(C)c1nc(C(=O)NCc2ccc(F)cc2)c(O)c2ncccc12,MT-4,p24,10% FBS,-,<0.156 µM
C=C(C)[C@@H]1CC[C@]2(COC(=O)CC(C)(C)C(=O)O)CC[C@@H]3[C@H](CC[C@H]4[C@H]3CC[C@H]3C(C)(C)[C@@H](OC(=O)CC(C)(C)C(=O)O)CC[C@]43C)[C@@H]12,H9,-,-,-,0.02 µM
CC(C)C1=C2[C@H]3CC[C@@H]4[C@@]5(C)CC[C@H](OC(=O)[C@H]6C[C@@H](C(=O)O)C6(C)C)C(C)(C)[C@@H]5CC[C@@]4(C)[C@]3(C)CC[C@@]2(NC(=O)C(C)(C)NC(=O)c2ccc(N3CCOCC3)nc2)CC1=O,MT-2,p24 / ELISA,-,92HT599,<0.003 µM
CCCCCCCCCCc1nccn(C(CO)OC(CO)CO)c1=O,MT-4,-,-,IIIB,>100 µM
CC=CC(=O)c1c(CC)c(=O)[nH]c(=O)n1COCC,MT-4,cytopathic effect / MTT,-,RT-Y181C N119,>100 µM
CC(C)C1=C2[C@H]3CC[C@@H]4[C@@]5(C)CC[C@H](OC(=O)[C@H]6C[C@@H](C(=O)O)C6(C)C)C(C)(C)[C@@H]5CC[C@@]4(C)[C@]3(C)CC[C@@]2([C@@H](O)CNCC(C)(CCN)NC(=O)c2ccc(Cl)cc2)CC1=O,MT-2,p24 / ELISA,-,92HT599,<1 µM
CC(C)(O)[C@@H]1CC[C@@]2(C)CCC[C@@](C)(O)[C@@H]2C1,1A2,syncytia,-,deltaTAT/Rev MC99,277.1 µM
Cc1cc(/C=C/C#N)cc(C)c1Oc1ccc(N)c(Nc2ccc(C#N)cc2)n1,MT-2,p24 / ELISA,-,IIIB,0.014 µM
C/C(=C\Cn1cnc2c(=O)[nH]c(N)nc21)CO,-,-,-,-,>100 µg/mL
[N-]=[N+]=N[C@H]1C[C@H](n2cc(Br)c(=O)[nH]c2=O)O[C@@H]1CO,MT-4,cytopathic effect,-,-,0.5 µM
CC(C)C1=C2[C@H]3CC[C@@H]4[C@@]5(C)CC[C@H](OC(=O)[C@H]6C[C@@H](C(=O)O)C6(C)C)C(C)(C)[C@@H]5CC[C@@]4(C)[C@]3(C)CC[C@@]2(NC(=O)C(C)(C)NC(=O)c2ccc(N3CCC(N4CCOCC4)CC3)cc2)CC1=O,MT-2,p24 / ELISA,-,92HT599,<0.003 µM
O=c1[nH]cnc2c1ncn2CC=C(CO)CO,-,-,-,-,>100 µg/mL
CC(C)C1=C[C@@H]2[C@H](CC[C@@]2(C)O)[C@@](C)(O)CC1,1A2,syncytia,-,deltaTAT/Rev MC99,266.8 µM
COCC1OC(=O)C12N(C)C(=O)C(C)C2(O)C(CC(C)C(O)/C=C/C=C/CNC(=O)C(C)(C)C(O)\C(C)=C/C=C\C=C\Cc1cnc(C)o1)OC,U-937,RT activity,-,-,<10 µg/mL
CC(C)C1=C2[C@H]3CC[C@@H]4[C@@]5(C)CC[C@H](OC(=O)[C@H]6C[C@@H](C(=O)O)C6(C)C)C(C)(C)[C@@H]5CC[C@@]4(C)[C@]3(C)CC[C@@]2(CCNCC2(NC(=O)c3ccc(Cl)cc3)CCCC2)CC1=O,MT-2,p24 / ELISA,-,92HT599,<1 µM
O=C(COCC1Nc2ccccc2S(=O)(=O)n2cccc21)c1ccc(Cl)cc1,MT-4,MTT,-,IIIB,72 µM
CC(C)C1=C2[C@H]3CC[C@@H]4[C@@]5(C)CC[C@H](OC(=O)[C@H]6C[C@@H](C(=O)O)C6(C)C)C(C)(C)[C@@H]5CC[C@@]4(C)[C@]3(C)CC[C@@]2(CCNCc2ccc(N3CCCCC3)cc2)CC1=O,MT-2,p24 / ELISA,-,92HT599,<1 µM
Cc1cn(CCCO[C@@H]2O[C@H](CO)[C@@H](N=[N+]=[N-])[C@H]2O)c(=O)[nH]c1=O,MT-4,cytopathic effect,-,IIIB,>100 µg/mL
C/C(=C\Cn1cnc2c(Cl)ncnc21)CO,-,-,-,-,>100 µg/mL
CCCCCCCCCCc1nccn(CCCCO)c1=O,CEM + CEM-SS,-,-,LAI,>100 µM
CCOCn1c(C(=O)C=C(C)C)c(CC)c(=O)[nH]c1=O,MT-4,cytopathic effect / MTT,-,IIIB WT,3.9 µM
COc1ccc(-c2oc3cc(OC)cc(O)c3c(=O)c2O)cc1,1A2,syncytia,-,deltaTAT/Rev MC99,43.3 µM
CCOC(=O)CC1Nc2ccccc2S(=O)(=O)n2cccc21,MT-4,MTT,-,IIIB,>312 µM
C=C(C)[C@@H]1CC[C@]2(COC(=O)CC(C)(C)C(=O)O)CC[C@@H]3[C@H](CC[C@H]4[C@H]3CC[C@H]3C(C)(C)[C@@H](OC(=O)C(C)(C)CC(=O)O)CC[C@]43C)[C@@H]12,H9,-,-,-,0.4 µM
CCc1cn([C@H]2C[C@H](F)[C@@H](CO)O2)c(=O)[nH]c1=O,MT-4,cytopathic effect,-,-,330 µM
Cc1cc(C#CC(C)(C)O)cc(C)c1Oc1ccc([N+](=O)[O-])c(Nc2ccc(C#N)cc2)n1,MT-2,p24 / ELISA,10% FBS,IIIB,8.91 µM
CC(C)C1=C2[C@H]3CC[C@@H]4[C@@]5(C)CC[C@H](OC(=O)[C@H]6C[C@@H](C(=O)O)C6(C)C)C(C)(C)[C@@H]5CC[C@@]4(C)[C@]3(C)CC[C@@]2(NC(=O)C(C)(C)NC(=O)c2nc3ccccc3[nH]2)CC1=O,MT-2,p24 / ELISA,-,92HT599,<0.003 µM
O=C(OCC1Nc2ccccc2S(=O)(=O)n2cccc21)c1ccc(Cl)cc1,MT-4,MTT,-,IIIB,99 µM
COc1cc(CC[C@H](C[C@@H](CCc2cc(OC)c(OC)c(OC)c2)OC(C)=O)OC(C)=O)cc(OC)c1OC,1A2,syncytia,-,deltaTAT/Rev MC99,60.9 µM
CC(C)C1=C2[C@H]3CC[C@@H]4[C@@]5(C)CC[C@H](OC(=O)[C@H]6C[C@@H](C(=O)O)C6(C)C)C(C)(C)[C@@H]5CC[C@@]4(C)[C@]3(C)CC[C@@]2(NC(=O)C(C)(C)NC(=O)c2ccc(N3CCS(=O)(=O)CC3)nc2)CC1=O,MT-2,p24 / ELISA,-,92HT599,<0.003 µM
CCN1c2cc(Br)cc3[nH]c(=S)n(c23)CCC1C,CEM + CEM-SS,-,-,-,3.86 µM
CCCc1cc(=O)oc2c3c(c4c(c12)OC(C)(C)CC4)O[C@@H](C)[C@H](C)[C@@H]3O,PBMC,RT activity,-,CLADE A,0.5 µM
COc1ccccc1CNC(=O)C1=Cc2ccncc2CC1,CEM + CEM-SS,cytopathic effect / XTT,-,RF,>181 µM
CS(=O)(=O)OCC1Nc2ccccc2S(=O)(=O)n2cccc21,MT-4,MTT,-,IIIB,>130 µM
Nc1nc(=O)n([C@H]2C[C@H](F)[C@@H](CO)O2)cc1Br,MT-4,cytopathic effect,-,-,5 µM
Nc1ncnc2c1ncn2CC=C(CO)CO,-,-,-,-,>100 µg/mL
CC(C)Oc1ccccc1CNC(=O)c1ccc2cnccc2n1,CEM + CEM-SS,cytopathic effect / MTT,-,RF,>31 µM
Nc1nc2c(ncn2C/C=C(/CO)c2ccccc2)c(=O)[nH]1,-,-,-,-,>100 µg/mL
O=C(NCCc1ccccc1)C1=Cc2ccncc2CC1,CEM + CEM-SS,cytopathic effect / MTT,-,IIIB,>34 µM
CCOCn1c(C(O)C=C(C)C)c(CC)c(=O)[nH]c1=O,MT-4,cytopathic effect / MTT,-,HTLV-IIIB WT,>100 µM
CC(C)C1=C2[C@H]3CC[C@@H]4[C@@]5(C)CC[C@H](OC(=O)[C@H]6C[C@@H](C(=O)O)C6(C)C)C(C)(C)[C@@H]5CC[C@@]4(C)[C@]3(C)CC[C@@]2(CCNCC(C)(C)NC(=O)c2ccncc2)CC1=O,MT-2,p24 / ELISA,-,92HT599,<1 µM
OC/C(=C/Cn1cnc2c(Cl)ncnc21)c1ccccc1,-,-,-,-,>100 µg/mL
Cc1nnc(-c2ccc(CNC(=O)C[C@@]34CC[C@]5(C)[C@H](CC[C@@H]6[C@@]7(C)CC[C@H](OC(=O)[C@H]8C[C@@H](C(=O)O)C8(C)C)C(C)(C)[C@@H]7CC[C@]65C)C3=C(C(C)C)C(=O)C4)cc2)o1,MT-2,p24 / ELISA,-,92HT599,<1 µM
CCN1CCCn2c(=S)[nH]c3cc(Br)cc1c32,CEM + CEM-SS,-,-,-,16.7 µM

The first 3 rows once more:

| structure | cells | method | conditions | strain or isolate | result |
|---|---|---|---|---|---|
| O=C(CC1Nc2ccccc2S(=O)(=O)n2cccc21)Nc1ccc(Cl)cc1 | MT-4 | MTT | - | IIIB | >12.5 µM |
| CC(C)C1=C2[C@H]3CC[C@@H]4[C@@]5(C)CC[C@H](OC(=O)[C@H]6C[C@@H](C(=O)O)C6(C)C)C(C)(C)[C@@H]5CC[C@@]4(C)[C@]3(C)CC[C@@]2([C@@H](O)CNC(=O)c2ccc(N3CCS(=O)(=O)CC3)cc2)CC1=O | MT-2 | p24 / ELISA | - | 92HT599 | <1 µM |
| CC(=O)N(C)CCN(C)c1nc(C(=O)NCc2ccc(F)cc2)c(O)c2ncccc12 | MT-4 | p24 | 10% FBS | - | <0.156 µM |

Neighbouring rows are from separate reports. ECn: concentration that inhibits the pathogen or its effect by n%.